The list shows a part of the results, in another mix than the full data. Activity calls are given as the source filed them. No stated cut-off is given here; in the data, active means inhibition above about 10% (passing the limit was not always enough); inconclusive means no clear call, values can overlap the other calls.
target: UDP-galactopyranose mutase (Mycobacterium tuberculosis (strain ATCC 25618 / H37Rv)) (UniProt P9WIQ1); experiment: M. tuberculosis UGM enzyme inhibitors, primary screen, biochemical, fluorescence polarization, single point (AID 504406); conditions: purified UGM, fluorescence polarization probe displacement; at 10 µM; active compounds read high

The chains behind the UniProt entries cited, without tags or fusion partners. Where a name states a change or a piece, a line headed by the entry shows the natural chain unless it says otherwise.
UniProt P9WIQ1: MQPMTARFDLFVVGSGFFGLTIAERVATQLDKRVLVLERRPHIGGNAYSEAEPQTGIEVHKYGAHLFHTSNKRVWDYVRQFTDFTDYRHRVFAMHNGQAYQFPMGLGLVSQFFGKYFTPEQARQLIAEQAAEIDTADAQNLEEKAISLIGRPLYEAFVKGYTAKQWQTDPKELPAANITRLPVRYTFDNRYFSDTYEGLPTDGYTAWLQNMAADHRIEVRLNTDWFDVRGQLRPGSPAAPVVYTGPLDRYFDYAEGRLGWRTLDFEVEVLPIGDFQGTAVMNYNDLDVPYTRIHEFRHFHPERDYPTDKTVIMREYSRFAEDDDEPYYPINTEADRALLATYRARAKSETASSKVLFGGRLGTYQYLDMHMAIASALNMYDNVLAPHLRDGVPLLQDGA

Structure (SMILES)	inhibition
CC(C)/C=N\N=C(\N)N[N+](=O)[O-]	inactive: -1.72%
CN(C(=O)Cc1ccc(Cl)c(Cl)c1)[C@@H]1CCCC[C@H]1N1CCCC1	inactive: -2.3%
CC1(CBr)Cn2c(nc3ccccc3c2=O)S1 (stereo not given)	inactive: -0.719%
O=[As](O)(c1ccccc1Br)c1ccccc1Br	inactive: -0.198%
CCOP(=O)(NC(=NC(C)c1ccccc1)NC(C)c1ccccc1)OCC (stereo not given)	inactive: -0.0484%
O=P1(Nc2ccccn2)COc2ccccc2OC1	inactive: 1.47%
CCC1=CC2Cc3nc4ccc(Cl)cc4c(N)c3C(C1)C2 (stereo not given)	inactive: 0.227%
CN(CCCl)Cc1cc(Cl)c(NC2=NCCN2)c(Cl)c1	inactive: -2.67%
CCOP(=O)(Nc1ccc(C)cn1)OCC	inactive: 1.43%
CC(C)(C)C(=O)NC(Sc1ncccn1)C(Cl)(Cl)Cl (stereo not given)	inactive: -2.42%
Clc1n[nH]nc1-c1nn[nH][15n]1	inactive: 1.33%
O=P1(Nc2ncccn2)COc2ccccc2OC1	inactive: 0.693%
Nc1cccc([As](=O)(O)c2ccccc2)c1	inactive: -0.66%
O=P1(Nc2ccc(Br)cn2)COc2ccccc2OC1	inactive: 0.659%
NS(=O)(=O)c1cccc(NC(=O)COC(=O)C(O)(c2ccccc2)c2ccccc2)c1	inactive: 1.62%
O=[As](O)(c1cccs1)c1cccs1	inactive: -2.08%
Cc1ccc(OCC(=O)OC2CN3CCC2CC3)cc1 (stereo not given)	inactive: 3.8%
CC1CCC(C(C)C)C(OP(=O)(Nc2ccccn2)c2ccccc2)C1 (stereo not given)	inactive: 0.39%
Cc1ccc(C(=O)OC2CN3CCC2CC3)cc1 (stereo not given)	inactive: -0.165%
Cc1nn(-c2ccccc2)c2c1P(=O)(N1CCOCC1)N(C)C(c1ccccc1)=N2 (stereo not given)	inactive: -0.917%
CN(C)C1(CNC(=O)c2ccc(S(C)(=O)=O)cc2)CCCCC1	inactive: -0.823%
O=C(/C=C/c1ccccc1)OC1CN2CCC1CC2 (stereo not given)	inactive: -0.72%
CCOC(=O)Nc1cccc([As](=O)(O)O)c1	inactive: 0.298%
O=P(Nc1ccccn1)(c1cccc2ccccc12)c1cccc2ccccc12	inactive: -1.32%
Cc1cc(SC(NC=O)C(Cl)(Cl)Cl)ncn1 (stereo not given)	inactive: -0.653%

Structure (SMILES)	inhibition
O=[N+]([O-])c1ccc(Nc2ccc(Oc3ccc([N+](=O)[O-])cc3[N+](=O)[O-])cc2)c([N+](=O)[O-])c1	inactive: -2.38%
CCOC(=O)Nc1ccc([As](=O)(O)O)c(O)c1	inactive: 1.67%
Cc1cc(SC(NC(=O)c2ccccc2)C(Cl)(Cl)Cl)nc(C(C)C)n1 (stereo not given)	inactive: 1.3%
O=C(OC1CN2CCC1CC2)c1cccc([N+](=O)[O-])c1 (stereo not given)	inactive: 0.0985%
CCOC(=O)c1ccc(NC(=O)C(C)(CCl)SC)cc1 (stereo not given)	inactive: -4%
CCC(C)N(CC(C)C)C(=S)SC(NC(C)=O)C(Cl)(Cl)Cl (stereo not given)	inactive: -0.95%
COP1(=S)c2c(C)nn(CCC#N)c2N=C(c2ccc(F)cc2)N1C (stereo not given)	inactive: -1.39%
O=C(Nc1ccncc1[N+](=O)[O-])c1ccc([N+](=O)[O-])cc1[N+](=O)[O-]	inactive: 1.09%
O=C(COc1ccccc1)OC1CN2CCC1CC2 (stereo not given)	inactive: 0.679%
COc1ccc(N/C(=N/P(=O)(N2CCOCC2)N2CCOCC2)N2CCOCC2)cc1	inactive: -1.19%
Cc1c2c(nc3ccccc13)SC(C(Cl)Cl)C2 (stereo not given)	inactive: 2.1%
Cc1cc(=O)[nH]c(N[N+](=O)[O-])n1	inactive: 1.62%
O=C(OC1CN2CCC1CC2)C12CC3CC(CC(C3)C1)C2 (stereo not given)	inactive: -1.44%
COc1cc(I)ccc1[As](=O)(O)O	inactive: 3.59%
COc1ccc2nc(NP(=O)(c3ccccc3)c3ccccc3)sc2c1	inactive: -0.264%
ClCCSc1nnc(-c2cccnc2)o1	inactive: -1.37%
CC(C)c1ccc(OP(=O)(Nc2ccccn2)Oc2ccccc2F)cc1 (stereo not given)	inactive: 0.611%
O=[N+]([O-])c1cc([N+](=O)[O-])c(-c2ccn[nH]2)s1	inactive: -0.444%
CCN(CC)C(=S)SC(NC=O)C(Cl)(Cl)Cl (stereo not given)	inactive: 2.84%
CC(C)NC(=O)NP(=O)(Oc1ccccc1)Oc1ccccc1	inactive: 0.226%
COc1cc(C(=O)NCC2(N3CCOCC3)CCCCC2)ccc1OCC(C)C	inactive: -2.28%
O=[As](O)(c1ccc(O)cc1)c1ccccc1O	inactive: -1.31%
C[As](=O)(O)c1cccc(C(=O)O)c1	inactive: 2.11%
Cc1ccc(OP(=O)(Nc2ccc([N+](=O)[O-])cn2)Oc2ccc(C)cc2)cc1	inactive: -1.46%
Cc1ccc2nc3c(c(C)c2c1)CC(C(Cl)Cl)S3 (stereo not given)	inactive: 2.74%

From PubChem BioAssay AID504406 (Broad Institute, 2011)
